## Zika virus NS2B-NS3: effect of single substitutions on growth in cell culture

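Libraries of single mutants were passaged as virus pools on Huh-7.5 cells. Sequencing of three replicate libraries (two for positions 207-308) was averaged into one effect per change. The study looked for pockets that tolerate few changes, as a guide for inhibitor design.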

Protein: NS2B and the protease part of NS3 of Zika virus strain MR766. Positions count along the chain below; NS2B spans 2-131 and NS3 starts at 132.
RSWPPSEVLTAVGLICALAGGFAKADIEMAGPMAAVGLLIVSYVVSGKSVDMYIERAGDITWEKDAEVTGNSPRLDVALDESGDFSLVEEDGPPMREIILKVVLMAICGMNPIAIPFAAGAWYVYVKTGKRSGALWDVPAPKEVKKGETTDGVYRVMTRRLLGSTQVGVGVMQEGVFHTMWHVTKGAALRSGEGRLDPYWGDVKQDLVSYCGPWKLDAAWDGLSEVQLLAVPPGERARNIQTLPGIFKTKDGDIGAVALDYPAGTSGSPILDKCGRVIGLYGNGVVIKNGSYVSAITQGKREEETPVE

Scale: log2 effect, wild type = 0; the lower, the more harmful to the virus.
Substitutions are written as wild-type residue, site number, new residue.
This list holds changes to alanine only.
Values above 0 are not proof of better growth: six high scorers were tested one by one, five grew less well than wild type and one about as well.
Position 1 still belongs to NS2A. In the paper, -1 or higher counts as tolerated.
The region was split into three libraries (1-103, 104-206, 207-308).

change,effect (log2)
R1A,-8.32
S2A,-1.95
W3A,-6.80
P4A,-4.49
P5A,-2.99
S6A,-0.03
E7A,-3.46
V8A,-2.90
L9A,-3.95
T10A,-2.60
V12A,-1.97
G13A,-6.75
L14A,-4.82
I15A,-4.90
C16A,-3.10
L18A,-3.05
G20A,-0.49
G21A,-0.17
F22A,-0.84
K24A,-1.64
D26A,-6.09
I27A,-2.27
E28A,-1.05
M29A,-1.08
G31A,-1.49
P32A,-6.53
M33A,-2.26
V36A,-1.47
G37A,-3.77
L38A,-6.65
L39A,-4.38
I40A,-1.21
V41A,-1.53
S42A,-1.97
Y43A,-5.46
V44A,-4.78
V45A,-4.96
S46A,2.06
G47A,-6.64
K48A,-6.06
S49A,-1.96
V50A,-2.87
D51A,-5.57
M52A,-6.71
Y53A,-6.72
I54A,-6.85
E55A,-3.18
R56A,-2.06
G58A,-1.28
D59A,-3.28
I60A,-5.70
T61A,-0.60
W62A,-6.99
E63A,-1.91
K64A,-0.11
D65A,-5.98
E67A,-5.54
V68A,-4.08
T69A,-4.18
G70A,-7.14
N71A,-2.60
S72A,-1.45
P73A,-7.13
R74A,-3.01
L75A,-7.49
D76A,-0.03
V77A,-6.96
L79A,-6.79
D80A,-6.80
E81A,-5.91
S82A,-2.49
G83A,-7.35
D84A,-7.17
F85A,-5.87
S86A,-4.24
L87A,-7.20
V88A,-6.46
E89A,-1.76
E90A,0.18
D91A,-1.74
G92A,-2.63
P93A,-4.27
P94A,-1.80
M95A,-2.62
R96A,-4.05
E97A,-2.80
I98A,-4.30
I99A,-0.19
L100A,-2.02
K101A,-6.92
V102A,-0.67
V103A,-0.59

The first 8 entries again:

{"change": "R1A", "effect (log2)": -8.32}
{"change": "S2A", "effect (log2)": -1.95}
{"change": "W3A", "effect (log2)": -6.80}
{"change": "P4A", "effect (log2)": -4.49}
{"change": "P5A", "effect (log2)": -2.99}
{"change": "S6A", "effect (log2)": -0.03}
{"change": "E7A", "effect (log2)": -3.46}
{"change": "V8A", "effect (log2)": -2.90}

From the data files of Ni et al. 2025, doi:10.1038/s41467-025-63602-z.